T1: DNA polymerase III α subunit (Pol III) (E. coli, UniProt P10443 1-1160)
T1 construct: DNA polymerase III α subunit, E. coli; Both an N-His6 and a non-tagged form were purified; source: E. coli BL21 (DE3), purified (N-His6: Histrap, Resource Q, Superdex 200; non-tagged: Source Q, Heparin, Resource Q, Superdex 200)
T1 sequence (looked up): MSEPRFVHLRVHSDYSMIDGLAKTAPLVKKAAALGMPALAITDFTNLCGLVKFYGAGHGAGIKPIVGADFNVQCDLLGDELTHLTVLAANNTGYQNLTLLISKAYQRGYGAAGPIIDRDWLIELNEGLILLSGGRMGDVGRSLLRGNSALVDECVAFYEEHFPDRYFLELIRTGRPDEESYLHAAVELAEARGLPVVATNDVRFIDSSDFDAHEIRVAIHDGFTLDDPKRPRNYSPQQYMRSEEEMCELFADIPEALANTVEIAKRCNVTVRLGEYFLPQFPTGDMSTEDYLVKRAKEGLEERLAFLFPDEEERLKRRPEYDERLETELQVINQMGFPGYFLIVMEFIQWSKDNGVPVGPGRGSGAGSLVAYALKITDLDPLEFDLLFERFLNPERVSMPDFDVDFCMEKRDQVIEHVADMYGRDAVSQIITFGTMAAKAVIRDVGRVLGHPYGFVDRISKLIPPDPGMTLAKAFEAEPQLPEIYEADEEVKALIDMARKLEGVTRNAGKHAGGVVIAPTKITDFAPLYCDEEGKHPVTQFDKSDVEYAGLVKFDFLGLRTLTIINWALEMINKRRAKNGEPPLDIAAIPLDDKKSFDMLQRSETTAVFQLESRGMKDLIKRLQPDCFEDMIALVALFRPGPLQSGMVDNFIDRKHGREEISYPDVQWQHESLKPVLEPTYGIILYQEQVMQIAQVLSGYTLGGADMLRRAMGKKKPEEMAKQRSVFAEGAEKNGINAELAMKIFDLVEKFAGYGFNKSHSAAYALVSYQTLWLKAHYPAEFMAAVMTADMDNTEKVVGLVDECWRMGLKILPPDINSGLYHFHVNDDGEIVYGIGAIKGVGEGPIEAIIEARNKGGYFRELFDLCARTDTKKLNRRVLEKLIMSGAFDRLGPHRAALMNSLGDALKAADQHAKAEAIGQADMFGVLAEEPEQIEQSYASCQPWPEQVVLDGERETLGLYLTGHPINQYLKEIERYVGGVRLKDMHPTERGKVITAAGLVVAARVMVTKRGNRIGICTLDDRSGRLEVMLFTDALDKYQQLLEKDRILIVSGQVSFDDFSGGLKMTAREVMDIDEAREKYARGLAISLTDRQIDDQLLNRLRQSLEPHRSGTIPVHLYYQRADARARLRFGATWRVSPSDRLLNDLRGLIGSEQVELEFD

T2: Pol III–exonuclease complex (E. coli, UniProt P10443 1-1160; P03007 1-243)
T2 construct: DNA polymerase III α subunit, E. coli; as m1; DNA polymerase III ε subunit (exonuclease), E. coli; as m3; The partner of the clamp in the samples with all three proteins; source: E. coli BL21 (DE3), each protein purified, then mixed
T2 sequence (looked up) 1: T1 sequence (looked up)
T2 sequence (looked up) 2: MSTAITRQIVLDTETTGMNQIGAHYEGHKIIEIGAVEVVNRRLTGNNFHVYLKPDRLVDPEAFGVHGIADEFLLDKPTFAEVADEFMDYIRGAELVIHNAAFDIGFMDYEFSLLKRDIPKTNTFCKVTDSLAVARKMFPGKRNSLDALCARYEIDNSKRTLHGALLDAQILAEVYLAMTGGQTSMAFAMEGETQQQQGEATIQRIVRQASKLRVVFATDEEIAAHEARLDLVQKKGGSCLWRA

T3: Pol III residues 1-270 (E. coli, UniProt P10443 1-270)
T3 construct: DNA polymerase III α subunit, E. coli, N-terminal fragment (PHP domain, residues 1-270); also called Pol III^1–270; truncation to residue 270; source: E. coli BL21 (DE3), purified
T3 sequence (looked up): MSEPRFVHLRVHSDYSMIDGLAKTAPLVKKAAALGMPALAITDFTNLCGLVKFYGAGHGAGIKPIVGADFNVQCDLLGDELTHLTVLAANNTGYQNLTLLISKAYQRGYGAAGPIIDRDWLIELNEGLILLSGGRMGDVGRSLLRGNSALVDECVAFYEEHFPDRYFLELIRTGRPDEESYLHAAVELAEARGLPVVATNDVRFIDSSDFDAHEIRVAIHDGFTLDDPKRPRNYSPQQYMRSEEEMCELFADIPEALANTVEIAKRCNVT

T4: Pol III residues 1-285 (E. coli, UniProt P10443 1-285)
T4 construct: DNA polymerase III α subunit, E. coli, N-terminal fragment; source: E. coli BL21 (DE3), purified
T4 sequence (looked up): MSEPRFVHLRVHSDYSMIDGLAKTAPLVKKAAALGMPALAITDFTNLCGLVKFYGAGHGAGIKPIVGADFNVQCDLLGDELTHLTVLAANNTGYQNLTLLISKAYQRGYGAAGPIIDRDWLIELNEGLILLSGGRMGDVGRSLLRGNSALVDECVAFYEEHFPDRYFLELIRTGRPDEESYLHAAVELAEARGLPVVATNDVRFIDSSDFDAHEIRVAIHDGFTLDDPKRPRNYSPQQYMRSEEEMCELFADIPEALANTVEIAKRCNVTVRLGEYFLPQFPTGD

B1: DNA sliding clamp (β subunit) (natural protein, E. coli, UniProt P0A988 1-366, looked up)
chain: MKFTVEREHLLKPLQQVSGPLGGRPTLPILGNLLLQVADGTLSLTGTDLEMEMVARVALVQPHEPGATTVPARKFFDICRGLPEGAEIAVQLEGERMLVRSGRSRFSLSTLPAADFPNLDDWQSEVEFTLPQATMKRLIEATQFSMAHQDVRYYLNGMLFETEGEELRTVATDGHRLAVCSMPIGQSLPSHSVIVPRKGVIELMRMLDGGDNPLRVQIGSNNIRAHVGDFIFTSKLVDGRFPDYRRVLPKNPDKHLEAGCDLLKQAFARAAILSNEKFRGVRLYVSENQLKITANNPEQEEAEEILDVTYSGAEMEIGFNVSYVLDVLNALKCENVRMMLTDSVSSVQIEDAASQSAAYVVMPMRL
notes: DNA polymerase III β subunit (sliding clamp), E. coli; the clamp is composed of two β monomers; Both an N-His6 and a non-tagged form were purified; source: E. coli BL21 (DE3), purified (N-His6: Histrap, Superdex 200; non-tagged: Phenyl sepharose, Hitrap Q, Hitrap SP)
B2: exonuclease (ε subunit) (enzyme, E. coli, UniProt P03007 1-243, looked up)
chain: T2 sequence (looked up) 2
notes: DNA polymerase III ε subunit (proofreading exonuclease), E. coli; A non-tagged form was obtained by removal of the His6 tag with human rhinovirus 3C protease

Experiments:
Conditions in all cases: both partners purified
[1] = target: T1, DNA polymerase III α subunit (Pol III); assay: SEC; Pol III (wild type, M923A+F924A or C-terminal deletions) mixed with clamp; wild type at 1.5, 5 and 10 μM; 50 μl on a PC3.2/30 Superdex 200 column; 50 mM Hepes pH 7.5, 150 mM NaCl, 2 mM DTT; fractions by SDS-PAGE, band intensities; KD estimated from a sum of two Gaussians fitted to the clamp profile, corrected five-fold for dilution, average of nine experiments
[2] = target: T2, Pol III–exonuclease complex; assay: SEC; as a1 with the exonuclease added: Pol III (wild type or C-terminal deletions) + exonuclease + clamp; wild type at 1.5, 5 and 10 μM; Superdex 200; 50 mM Hepes pH 7.5, 150 mM NaCl, 2 mM DTT; fractions by SDS-PAGE; KD estimated from two Gaussians of the clamp profile
[3] = target: T1, DNA polymerase III α subunit (Pol III); assay: as above
Pol III residues 1-270 = target: T3, Pol III residues 1-270; assay: SEC; N-terminal fragments of Pol III (1-270, 1-285) with and without exonuclease; shift of the elution profile (Figure 2E)
Pol III residues 1-285 = target: T4, Pol III residues 1-285; assay: as above

Row | Binder | Kd [1] [nM] | Kd [2] [nM] | binding result [3] | binding result (Pol III residues 1-270) | binding result (Pol III residues 1-285)
1 | B1 | 1200 ± 200 | 300 ± 100 |  |  | 
2 | B2 |  |  | binds | binds | binds

Reference: paper PMC3642679, “Architecture of the Pol III–clamp–exonuclease complex reveals key roles of the exonuclease subunit in processive DNA synthesis and repair” (The EMBO Journal, 2013)
